PubChem BioAssay AID504761, Drosophila RNAi Screening Center, 2011
Test: 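Insect host genes that dengue virus relies on to spread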 (primary screen). Cell system: D.Mel-2 cells from Drosophila. Reagent: long dsRNA against Drosophila genes. Challenge: infection with dengue virus type 2; dose and infection time not stated. Detection: 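Cells stained for dengue envelope protein and imaged; percent of infected cells per well on duplicate plates, ranked by infection, with stained nuclei counted for cell number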. Direction: infection score: higher = more virus-infected cells; cell count: higher = more cells in the well. Call rule: 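Very low infection ranking in both replicate wells (chance probability at most 0.065), then a retest showing infection dropped 1.5-fold or more at p below 0.05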. Calls: active = confirmed: knock-down lowers infection; inactive = not picked or not confirmed.
The deposit covers about 22,000 reagents; shown is a random part of those with a known target gene and a result. Over the whole deposit, 116 (0.52%) are marked active. 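Calls depend on retest data that are not deposited; infection was ranked per plate without normalising between plates; the unit of the infection score is not given.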 Raw values vary from plate to plate and are shown uncorrected. Names joined by + are all predicted targets of the reagent. Not all columns of the deposit are shown. Reagent sequences are not shown. Not stated in the record: the amount of reagent, the time to read-out.

LysX (GeneID 38122) [SID104188470] | infection score, replicate 1 = 5.83; cell count, replicate 1 = 5813; Call = inactive
Vtld + CG42529 [SID104189894] | infection score, replicate 1 = 3.06; cell count, replicate 1 = 6104; Call = inactive
HDAC11 (GeneID 326120) [SID104194072] | infection score, replicate 1 = 10.6; cell count, replicate 1 = 5176; Call = inactive
HDAC11 (GeneID 326120) [SID104205386] | infection score, replicate 1 = 2.95; cell count, replicate 1 = 6365; Call = inactive
CG42565 (GeneID 37598) [SID104183946] | infection score, replicate 1 = 18.5; cell count, replicate 1 = 4405; Call = inactive
CG13731 (GeneID 39938) [SID104189851] | infection score, replicate 1 = 3.26; cell count, replicate 1 = 6624; Call = inactive
CG13731 (GeneID 39938) [SID104206128] | infection score, replicate 1 = 3.4; cell count, replicate 1 = 6297; Call = inactive
CG4678 (GeneID 32652) [SID104199703] | infection score, replicate 1 = 3.35; cell count, replicate 1 = 6750; Call = inactive
CG4678 (GeneID 32652) [SID104199704] | infection score, replicate 1 = 5.31; cell count, replicate 1 = 6366; Call = inactive
CG15107 (GeneID 59128) [SID104202723] | infection score, replicate 1 = 1.08; cell count, replicate 1 = 6406; Call = inactive
dgt4 (GeneID 31361) [SID104198451] | cell count, replicate 1 = 239; Call = inactive
dgt4 (GeneID 31361) [SID104207117] | cell count, replicate 1 = 403; Call = inactive
Cbp80 (GeneID 44409) [SID104198242] | cell count, replicate 1 = 46; Call = inactive
Tango4 (GeneID 32168) [SID104199578] | infection score, replicate 1 = 3.42; cell count, replicate 1 = 2891; Call = inactive
Tango4 (GeneID 32168) [SID104202753] | infection score, replicate 1 = 7.5; cell count, replicate 1 = 2092; Call = inactive
Lmpt (GeneID 39889) [SID104189242] | infection score, replicate 1 = 1.36; cell count, replicate 1 = 6313; Call = inactive
Lmpt (GeneID 39889) [SID104189656] | infection score, replicate 1 = 2.85; cell count, replicate 1 = 5863; Call = inactive
Lmpt (GeneID 39889) [SID104189657] | infection score, replicate 1 = 4.8; cell count, replicate 1 = 6810; Call = inactive
Lmpt (GeneID 39889) [SID104189658] | infection score, replicate 1 = 3.04; cell count, replicate 1 = 5928; Call = inactive
Lmpt (GeneID 39889) [SID104190899] | infection score, replicate 1 = 1.85; cell count, replicate 1 = 6481; Call = inactive
Lmpt (GeneID 39889) [SID104201408] | infection score, replicate 1 = 7.18; cell count, replicate 1 = 5616; Call = inactive
Lmpt (GeneID 39889) [SID104202278] | infection score, replicate 1 = 1.08; cell count, replicate 1 = 6785; Call = inactive
Lmpt (GeneID 39889) [SID104203641] | infection score, replicate 1 = 12.9; cell count, replicate 1 = 6041; Call = inactive
Lmpt (GeneID 39889) [SID104203828] | infection score, replicate 1 = 8.67; cell count, replicate 1 = 6331; Call = inactive
Lmpt (GeneID 39889) [SID104207837] | infection score, replicate 1 = 14.3; cell count, replicate 1 = 3825; Call = inactive
RluA-2 (GeneID 34440) [SID104182731] | infection score, replicate 1 = 31.6; cell count, replicate 1 = 6438; Call = inactive
wisp (GeneID 32152) [SID104202449] | infection score, replicate 1 = 2.07; cell count, replicate 1 = 5749; Call = inactive
wisp (GeneID 32152) [SID104204461] | infection score, replicate 1 = 1.19; cell count, replicate 1 = 6402; Call = inactive

Quoted from the entries so far (2 entries):
CG13731 (GeneID 39938) [SID104206128] | infection score, replicate 1 = 3.4; cell count, replicate 1 = 6297; Call = inactive
CG4678 (GeneID 32652) [SID104199703] | infection score, replicate 1 = 3.35; cell count, replicate 1 = 6750; Call = inactive
